Source: PubChem BioAssay AID540299 (ICCB-Longwood Screening Facility, Harvard Medical School, 2011)
Only a part is listed here, and it is no random draw. Active and inactive are the calls of the source. Cut-off read from the data, not from the text of the source: active = inhibition above about 21% (passing the limit was not always enough); inactive = the rest.

Protein sequences, listed by entry. Tags and fused reporters are not part of them.
UniProt P9WNP5, whole entry: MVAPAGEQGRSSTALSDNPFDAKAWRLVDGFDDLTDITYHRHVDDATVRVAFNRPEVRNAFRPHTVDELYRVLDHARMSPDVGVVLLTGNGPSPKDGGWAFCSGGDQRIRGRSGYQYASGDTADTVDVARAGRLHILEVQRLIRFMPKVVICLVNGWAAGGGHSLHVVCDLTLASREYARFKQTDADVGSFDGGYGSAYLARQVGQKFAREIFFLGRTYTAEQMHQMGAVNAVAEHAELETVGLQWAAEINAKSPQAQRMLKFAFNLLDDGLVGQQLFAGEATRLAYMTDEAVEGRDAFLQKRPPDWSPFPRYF

Each compound was assayed against 1,4-dihydroxy-2-naphthoyl-CoA synthase (Mycobacterium tuberculosis (strain ATCC 25618 / H37Rv)) (UniProt P9WNP5) (assay: M. tuberculosis MenB inhibitors, primary screen, biochemical, absorbance (AID 540299)). Details: MenB enzyme assay, absorbance read-out; hits give high values; concentration not given here.
With O=c1[nH]c2ccccc2n1C1CCN(CCCC(c2ccc(F)cc2)c2ccc(F)cc2Cl)CC1 (stereo not drawn) the inhibition was inactive: -15.8%.
For CC1CN(CCc2ccccc2)C(C)CC1=O (stereo not drawn), the inhibition was inactive: -11%.
In the case of CN(C)c1ccc(C(=O)NCC2(N3CCCCC3)CCCCC2)cc1, the inhibition is reported as inactive: -7.14%.
In the case of CCN1CCC(Nc2ccc(F)cc2)CC1, the inhibition is reported as inactive: -22%.
For CCOc1ncccc1C(=O)NCC1(N2CCCCC2)CCCCC1, the inhibition was inactive: -29%.
In the case of O=C(NCC1(N2CCCCC2)CCCCC1)c1n[nH]c2ccccc12, the inhibition is reported as inactive: 5.33%.
CCOc1ncccc1C(=O)NCC1(N(C)C)CCCCC1 was tested, and the inhibition was inactive: -30.8%.
In the case of CN1CCC(Nc2ccc(F)cc2)CC1, the inhibition is reported as inactive: -1.95%.
O=C1CCN(CCc2ccccc2)CC1 was tested, and the inhibition was inactive: -6.15%.
With NC(=O)C1(Nc2ccccc2)CCN(Cc2ccccc2)CC1 the inhibition was inactive: 3.84%.
In the case of Cc1c(C(=O)NCC2(N3CCOCC3)CCCCC2)oc2c(Cl)cccc12, the inhibition is reported as inactive: 3.24%.
CCCN1CCC(Nc2cc(OC)cc(OC)c2)CC1 was tested, and the inhibition was inactive: 5.45%.
For O=C(NCC1(N2CCOCC2)CCCCC1)c1cc2ccccc2cc1O, the inhibition was inactive: -46.5%.
For CC(C)(C)OC(=O)N1CCC(Nc2ccc(OC(F)(F)F)cc2)CC1, the inhibition was inactive: 2.2%.
In the case of Cn1nc(C(=O)NCC2(N3CCCCC3)CCCCC2)c2ccccc2c1=O, the inhibition is reported as inactive: 7.98%.
For Cc1ccc(C(=O)NCC2(N(C)C)CCCCC2)o1, the inhibition was inactive: -5.71%.
In the case of c1ccc(CN2CCC(Nc3ccc4c(c3)OCO4)CC2)cc1, the inhibition is reported as inactive: 7.33%.
With NC(=O)C1(Nc2ccc(F)cc2)CCNCC1 the inhibition was inactive: -0.23%.
For FC(F)(F)Oc1ccc(NC2CCNCC2)cc1, the inhibition was inactive: 8.91%.
With CC1CN(CCc2ccccc2)CCC1=O (stereo not drawn) the inhibition was inactive: -17.9%.
With Cc1cnc(C(=O)NCC2(N3CCCCC3)CCCCC2)cn1 the inhibition was inactive: -12.1%.
In the case of N#CC1(Nc2ccccc2)CCN(Cc2ccccc2)CC1, the inhibition is reported as inactive: -3.39%.
For COc1ccc(C(=O)NCC2(N3CCCCC3)CCCCC2)cc1, the inhibition was inactive: -28.1%.
With CCCN1CCC(Nc2ccc(OC)c(OC)c2)CC1 the inhibition was inactive: -10.3%.
With CCOC(=O)N1CCC(Nc2cccc(C)c2)CC1 the inhibition was inactive: -14.5%.
With CCOC(=O)N1CCC(Nc2ccc(F)cc2)CC1 the inhibition was inactive: -10.3%.
For O=C1CCN(Cc2ccccc2)CC1, the inhibition was inactive: -31.5%.
With O=C(NCC1(N2CCOCC2)CCCCC1)c1ccc2nc[nH]c2c1 the inhibition was inactive: -0.58%.
